Measured values from several laboratories, pooled; numbers as filed in NIAID ChemDB.

All rows: whole-cell or culture tests; species: HIV-2; measure: EC50

ECn: concentration that inhibits the pathogen or its effect by n%.

smiles | method | strain or isolate | cells | value
COc1ccc(C=O)cc1B(O)O | syncytia | ROD | CEM | ≥250 µM
N#Cc1ccc(Nc2nc(Oc3ccc(-c4ccc(C#N)cc4)c(F)c3)c3sccc3n2)cc1 | MTT | ROD | MT-4 | 36.5 µM
O=C(CSc1nc(CCC2CCCCC2)cc(=O)[nH]1)c1ccc(F)cc1 | MTT | ROD | MT-4 | 80 µM
COc1ccc(B(O)O)cc1C=O | syncytia | ROD | CEM | >10 µM
N#Cc1ccc(Nc2nc(Oc3ccc(-c4ccc(C#N)cc4)cc3F)c3sccc3n2)cc1 | MTT | ROD | MT-4 | >125 µM
Cc1cn([C@@H]2O[C@H](CO[Si](C)(C)C(C)(C)C)C3(OC(=O)N=C3N)[C@H]2O[Si](C)(C)C(C)(C)C)c(=O)[nH]c1=O | - | ROD | MT-4 | >35 µM
Cc1cc(C=O)cc2c1OP(=O)(OC[C@@H]1C=C[C@H](n3cc(C)c(=O)[nH]c3=O)O1)OC2 | - | - | CEM + CEM TK- | 11.8 µM
O=Cc1ccc(B(O)O)cc1 | syncytia | ROD | CEM | >50 µM
Nc1ccn([C@H]2CC[C@@H](CO)O2)c(=O)n1 | cytopathic effect / MTT | ROD | MT-4 | >0.09 µg/mL
Cc1cn([C@H]2C[C@H](N=[N+]=[N-])[C@@H](CO)O2)c(=O)[nH]c1=O | virus yield | LAV-2 | U-937 | <1 µM
Cc1c(CCC2CCCCC2)nc(SCC(=O)c2ccccc2)[nH]c1=O | MTT | ROD | MT-4 | 124 µM
Cc1cn([C@H]2C[C@H](N=[N+]=[N-])[C@@H](CO)O2)c(=O)[nH]c1=O | - | ROD | CEM/TK- | >1000 µM
CCc1c(C(=O)c2cc(C)cc(C)c2)n(CC2CC=CC2)c(=O)[nH]c1=O | cytopathic effect / XTT | + 20mg/mL BSA | CEM + CEM-SS | 0.002 µM
Cc1cn([C@H]2C[C@H](N=[N+]=[N-])[C@@H](COC(=O)CCC(=O)OCC3OC4OC5C(COS(=O)(=O)O)OC(OC6C(COS(=O)(=O)O)OC(OC7C(COS(=O)(=O)O)OC(OC8C(COS(=O)(=O)O)OC(OC9C(COS(=O)(=O)O)OC(OC3C(OS(=O)(=O)O)C4OS(=O)(=O)O)C(OS(=O)(=O)O)C9OS(=O)(=O)O)C(OS(=O)(=O)O)C8OS(=O)(=O)O)C(OS(=O)(=O)O)C7OS(=O)(=O)O)C(OS(=O)(=O)O)C6OS(=O)(=O)O)C(OS(=O)(=O)O)C5OS(=O)(=O)O)O2)c(=O)[nH]c1=O | cytopathic effect / MTT | ROD | MT-4 | 5.17 µg/mL
OCc1ccccc1B(O)O | syncytia | ROD | CEM | ≥50 µM
Cc1cn([C@@H]2C=C[C@H](COC(=O)NCCCCNC(=O)OC[C@H]3O[C@@H](n4cc(C)c(=O)[nH]c4=O)C[C@@H]3N=[N+]=[N-])O2)c(=O)[nH]c1=O | cytopathic effect / MTT | ROD | MT-4 | 19 µM
CCc1c(C(C)C2CCCCC2)nc(SCC(=O)c2ccc(OC)cc2)[nH]c1=O | MTT | ROD | MT-4 | 30 µM
Cc1cn([C@@H]2O[C@H](CO[Si](C)(C)C(C)(C)C)C3(OC(=O)N(C)C3=N)[C@H]2O[Si](C)(C)C(C)(C)C)c(=O)n(C)c1=O | - | ROD | MT-4 | >175 µM
N#Cc1ccc(Nc2nc(Oc3ccc(-c4ccc(C#N)cc4)cc3[N+](=O)[O-])c3sccc3n2)cc1 | MTT | ROD | MT-4 | >107.2 µM
Cc1c(C(C)CC2CCCCC2)nc(SCC(=O)c2ccc(F)cc2)[nH]c1=O | MTT | ROD | MT-4 | 115 µM
Nc1nc2c(ncn2C2CC=C[C@H]2CO)c(=O)[nH]1 | - | ROD | CEM/TK- | >100 µM
CCc1c(CCC2CCCCC2)nc(SCC(=O)c2ccc(F)cc2)[nH]c1=O | MTT | ROD | MT-4 | 164 µM
COC(=O)[C@@H](C)NP(=O)(OC[C@@H]1C=C[C@H](n2cc(C)c(=O)[nH]c2=O)O1)Oc1ccccc1 | - | - | CEM | 2.5 µM
Cc1cn([C@@H]2C=C[C@H](COC(=O)NCCCCNC(=O)OC[C@@H]3C=C[C@H](n4cc(C)c(=O)[nH]c4=O)O3)O2)c(=O)[nH]c1=O | cytopathic effect / MTT | ROD | MT-4 | 22.5 µM
O=C(NC1CC1)c1ccc(B(O)O)cc1 | syncytia | ROD | CEM | >250 µM
Cc1cc(-c2ccc(C#N)cc2)cc(C)c1Oc1nc(Nc2ccc(C#N)cc2)nc2ccsc12 | MTT | ROD | MT-4 | 1.4 µM
OB(O)c1ccc(Br)cc1 | syncytia | ROD | CEM | >50 µM
Cc1cn([C@@H]2C[C@@H](N=[N+]=[N-])[C@H](COC(=O)NCCCCNC(=O)OC[C@H]3O[C@@H](n4cc(C)c(=O)[nH]c4=O)C[C@@H]3N=[N+]=[N-])O2)c(=O)[nH]c1=O | cytopathic effect / MTT | ROD | MT-4 | 2.58 µM
Cc1c(C(C)CC2CCCCC2)nc(SCC(=O)c2ccccc2)[nH]c1=O | MTT | ROD | MT-4 | 179 µM
N#Cc1ccc(Nc2nc(Oc3ccc(-c4ccc(C#N)cc4)cc3C(F)(F)F)c3sccc3n2)cc1 | MTT | ROD | MT-4 | 95.1 µM
CCN(CC)C(=O)c1ccc(B(O)O)cc1 | syncytia | ROD | CEM | >250 µM
Cc1cn([C@@H]2C=C[C@H](COC(=O)OC[C@H]3O[C@@H](n4cc(C)c(=O)[nH]c4=O)C[C@@H]3N=[N+]=[N-])O2)c(=O)[nH]c1=O | cytopathic effect / MTT | ROD | MT-4 | 0.0038 µM
COc1ccc(C(=O)CSc2nc(C(C)C3CCCCC3)c(C)c(=O)[nH]2)cc1 | MTT | ROD | MT-4 | 28 µM
Cc1cn([C@H]2C=C[C@@H](CO)O2)c(=O)[nH]c1=O | - | ROD | CEM/TK- | >50 µM
Cc1cn([C@H]2C[C@H](N=[N+]=[N-])[C@@H](COC(=O)CCC(=O)OC[C@H]3O[C@@H]4O[C@H]5[C@H](O)[C@@H](O)[C@@H](O[C@H]6[C@H](O)[C@@H](O)[C@@H](O[C@H]7[C@H](O)[C@@H](O)[C@@H](O[C@H]8[C@H](O)[C@@H](O)[C@@H](O[C@H]9[C@H](O)[C@@H](O)[C@@H](O[C@H]3[C@H](O)[C@H]4O)O[C@@H]9CO)O[C@@H]8CO)O[C@@H]7CO)O[C@@H]6CO)O[C@@H]5CO)O2)c(=O)[nH]c1=O | cytopathic effect / MTT | ROD | MT-4 | 0.036 µg/mL
Cc1cn([C@H]2C=C[C@@H](CO)O2)c(=O)[nH]c1=O | - | - | CEM | 0.41 µM
CCN(C)C(=O)Oc1nsnc1-c1c(Cl)cccc1Cl | MTT | EHO | MT-4 | >29 µM
Cc1c(CCC2CCCCC2)nc(SCC(=O)c2ccc(F)cc2)[nH]c1=O | MTT | ROD | MT-4 | 7.3 µM

For reference, 3 entries again:

smiles | method | strain or isolate | cells | value
N#Cc1ccc(Nc2nc(Oc3ccc(-c4ccc(C#N)cc4)c(F)c3)c3sccc3n2)cc1 | MTT | ROD | MT-4 | 36.5 µM
COc1ccc(B(O)O)cc1C=O | syncytia | ROD | CEM | >10 µM
Cc1cn([C@H]2C[C@H](N=[N+]=[N-])[C@@H](COC(=O)CCC(=O)OCC3OC4OC5C(COS(=O)(=O)O)OC(OC6C(COS(=O)(=O)O)OC(OC7C(COS(=O)(=O)O)OC(OC8C(COS(=O)(=O)O)OC(OC9C(COS(=O)(=O)O)OC(OC3C(OS(=O)(=O)O)C4OS(=O)(=O)O)C(OS(=O)(=O)O)C9OS(=O)(=O)O)C(OS(=O)(=O)O)C8OS(=O)(=O)O)C(OS(=O)(=O)O)C7OS(=O)(=O)O)C(OS(=O)(=O)O)C6OS(=O)(=O)O)C(OS(=O)(=O)O)C5OS(=O)(=O)O)O2)c(=O)[nH]c1=O | cytopathic effect / MTT | ROD | MT-4 | 5.17 µg/mL

Conditions beyond the fields shown may differ between rows. An empty or dashed field is not shown.